A mixed list of measured activities; the numbers were collected in NIAID ChemDB.

Common to all: cytotoxicity tests; cell line: DAUDI; endpoint: CC50

Rows are shuffled and stem from different studies.

SMILES	value
COC(=O)[C@H](C)NP(=O)(OCC1C/C1=C/n1cnc2c(N)ncnc21)Oc1ccccc1	>108 µM
Nc1nc(F)nc2c1ncn2/C=C1/CC1CO	>50 µM
COc1nc(N)nc2c1ncn2/C=C1/C[C@@H]1CO	40 µM
Cc1cn([C@@H]2C[C@@H](O)[C@H](CO)O2)c(=O)[nH]c1=O	>50 µM
COC(=O)[C@H](C)NP(=O)(OC[C@H]1C/C1=C\n1cnc2c(=O)[nH]c(N)nc21)Oc1ccccc1	>105 µM
Nc1nc(NC2CC2)c2ncn(/C=C3/C[C@H]3CO)c2n1	132 µM
Nc1nc(NC2CC2)c2ncn(C=C3CC3CO)c2n1	>184 µM
Nc1nc2c(ncn2/C=C2/C[C@H]2CO)c(=O)[nH]1	>214 µM
Nc1ncnc2c1ncn2[C@@H]1C[C@@H](O)[C@H](CO)O1	23.1 µM
COC(=O)[C@H](C)NP(=O)(OC[C@H]1C/C1=C/n1cnc2c(N)nc(N)nc21)Oc1ccccc1	26 µM
Nc1nc(Cl)nc2c1ncn2/C=C1/CC1CO	>50 µM
Nc1nc(N)c2ncn(/C=C3/C[C@H]3CO)c2n1	>215 µM
Nc1ccn([C@@H]2C[C@@H](O)[C@H](CO)O2)c(=O)n1	>50 µM
Nc1nc2c(ncn2/C=C2/C[C@@H]2CO)c(=O)[nH]1	>214 µM
Cc1cn([C@@H]2C[C@@H](O)[C@H](CO)O2)c(=O)[nH]c1=O	>50 µM

The last 2 rows once more:

SMILES | value
Nc1nc2c(ncn2/C=C2/C[C@@H]2CO)c(=O)[nH]1 | >214 µM
Cc1cn([C@@H]2C[C@@H](O)[C@H](CO)O2)c(=O)[nH]c1=O | >50 µM

CCn: concentration that lowers growth or viability of the cells by n%.